Anti-infective test results gathered from many reports (values: NIAID ChemDB through PubChem).

All rows: growth or infection tests; organism: Candida albicans

An empty or dashed field is not shown.

structure,strain,endpoint,value
O=C1CC(Nc2ccc(Oc3ccc(Cl)cc3)c(Cl)c2)C(=O)N1c1ccc(Sc2ccc([N+](=O)[O-])cc2)cc1,,MIC,>200 µg/mL
COc1ccc(/C=c2\sc3n(c2=O)C(c2cc(OC)c(OC)c(OC)c2)C=C(c2ccc(OC)c(OC)c2)N=3)cc1,DSM 70014,MIC,50 µg/mL
Cc1nc(NC(=O)c2ccc(F)cc2)sc1C(=O)N/N=C1/S/C(=C/c2ccc(F)cc2)C(=O)N1c1ccccc1,MTCC 227,MIC50,250 µg/mL
CC(C)CCCCCCCCC1CC(=O)NCC(=O)N[C@@H](CCCN)C(=O)N[C@@H](C(C)C)C(=O)N1,IFM 40009,MIC,2.5 µg/mL
COc1cc(C2CC(c3ccc4c(c3)OCO4)=NN2c2ccccc2)cc(OC)c1OC,DSM 70014,MIC,50 µg/mL
CCCCCOc1ccc(-c2ccc(-c3ccc(C(=O)N[C@H]4C[C@@H](O)[C@@H](O)NC(=O)[C@@H]5[C@@H](O)[C@@H](C)CN5C(=O)[C@H]([C@H](C)O)NC(=O)[C@H]([C@H](O)[C@@H](O)c5ccc(O)cc5)NC(=O)[C@@H]5C[C@@H](O)CN5C(=O)[C@H]([C@H](C)O)NC4=O)cc3)cc2)cc1,10 strains (fluconazole-resistant),MIC50,0.06 µg/mL
COc1ccc(C2=CC(c3cc(OC)c(OC)c(OC)c3)N=C(SCC(C)=O)N2)cc1OC,DSM 70014,MIC,50 µg/mL
COc1ccc(/C=C2/S/C(=N/NC(=O)c3sc(NC(=O)c4ccc(F)cc4)nc3C)N(c3ccccc3)C2=O)cc1,MTCC 227,MIC50,100 µg/mL
COc1ccc(C2=CC(c3cc(OC)c(OC)c(OC)c3)NC(=S)N2C)cc1OC,DSM 70014,MIC,50 µg/mL
C[C@@H](N1CCN(c2ccc(-n3cnnn3)cc2)C1=O)[C@](O)(Cn1cncn1)c1ccc(F)cc1F,IFO 0583,MIC,1 µg/mL
C=CC(C)(/C=C\c1ccc(O)cc1)c1ccc(O)cc1,KULM 83-0030,MIC,50 µg/mL
CC(=O)OCC1C=C(c2ccc(Cl)c(Cl)c2)C(=O)O1,25 isolates,MIC90,4 µg/mL
Cc1nc(NC(=O)c2ccc(F)cc2)sc1C(=O)N/N=C1/S/C(=C/c2ccccc2Cl)C(=O)N1c1ccccc1,MTCC 227,MIC50,1000 µg/mL
COc1ccc(C2=CC(c3cc(OC)c(OC)c(OC)c3)N3C(=O)CSC3=N2)cc1OC,DSM 70014,MIC,100 µg/mL
Cc1ccc(/C=C2/S/C(=N/NC(=O)c3sc(NC(=O)c4ccc(F)cc4)nc3C)N(c3ccccc3)C2=O)cc1,MTCC 227,MIC50,100 µg/mL
CC(=O)OC(CCCCCCC(O)c1ccccc1)C1=CCCOC1=O,,MIC,>100 µg/mL
CCOc1ccc(N2C(=O)CC(Nc3ccc(Oc4ccc(Cl)cc4)c(Cl)c3)C2=O)cc1,,MIC,20 µg/mL
Cc1nc(NC(=O)c2ccc(F)cc2)sc1C(=O)N/N=C1/S/C(=C/c2ccccc2[N+](=O)[O-])C(=O)N1c1ccccc1,MTCC 227,MIC50,500 µg/mL
C[C@@H](N1CCN(c2ccc(-n3cnnn3)cc2)C1=O)[C@@](O)(Cn1cncn1)c1ccc(F)cc1F,TA,MIC,2 µg/mL
CCCOc1ccc(N2C(=O)CC(Nc3ccc(Oc4ccc(Cl)cc4)c(Cl)c3)C2=O)cc1,,MIC,40 µg/mL
C[C@@H]1CCC2(OC1)OC1CC3C4C[C@H](O)[C@H]5C[C@@H](O)CC[C@]5(C)C4CC(=O)[C@]3(C)C1[C@@H]2C,ATCC 90028,EC50,7 µg/mL
CC1=C(Cl)C(O)=CC(=O)C12Oc1cc(O)c(Cl)c(C)c1C2=O,MTCC 227,MIC50,500 µg/mL
COc1cc(C2CC(c3ccc4c(c3)OCO4)=NN2C(C)=O)cc(OC)c1OC,DSM 70014,MBC,50 µg/mL
Cc1c(O)cccc1C(=O)N[C@@H](CSc1ccccc1)[C@H](O)CN1C[C@H]2CCCC[C@H]2C[C@H]1C(=O)NC(C)(C)C,I1,MIC,64 µg/mL
Cc1nc(NC(=O)c2ccc(F)cc2)sc1C(=O)N/N=C1/S/C(=C/c2ccccc2O)C(=O)N1c1ccccc1,MTCC 227,MIC50,100 µg/mL
COc1ccc(NC(=O)CSC2NC(c3ccc4c(c3)OCO4)=CC(c3cc(OC)c(OC)c(OC)c3)N2)cc1,DSM 70014,MIC,100 µg/mL
Cc1nc(NC(=O)c2ccc(F)cc2)sc1C(=O)N/N=C1/S/C(=C/c2ccc([N+](=O)[O-])cc2)C(=O)N1c1ccccc1,MTCC 227,MIC50,500 µg/mL
CN1C(=O)CC(Nc2ccc(Oc3ccc(Cl)cc3)c(Cl)c2)C1=O,,MIC,>200 µg/mL
CCC(C)CCCCCCC1CC(=O)NCC(=O)N[C@@H](CCCN)C(=O)N[C@@H](C(C)CC)C(=O)N1,ATCC 10231,MIC,5 µg/mL
CCCCOc1ccc(N2C(=O)CC(Nc3ccc(Oc4ccc(Cl)cc4)c(Cl)c3)C2=O)cc1,,MIC,40 µg/mL
COc1ccc(C2=CC(c3cc(OC)c(OC)c(OC)c3)NC(SCC(=O)Nc3ccc(Cl)cc3)N2)cc1OC,DSM 70014,MIC,25 µg/mL
CC(C)[S+](C)CC[C@@H](C)C1CCC2C3CC=C4CC(O)CCC4(C)C3CCC21C.[I-],,MLC,50 µg/mL
O=C1CC(Nc2ccc(Oc3ccc(Cl)cc3)c(Cl)c2)C(=O)N1c1cnc2ccccc2c1,,MIC,>200 µg/mL

3 of the rows above, restated:

| structure | strain | endpoint | value |
|---|---|---|---|
| COc1ccc(C2=CC(c3cc(OC)c(OC)c(OC)c3)N3C(=O)CSC3=N2)cc1OC | DSM 70014 | MIC | 100 µg/mL |
| CCCCCOc1ccc(-c2ccc(-c3ccc(C(=O)N[C@H]4C[C@@H](O)[C@@H](O)NC(=O)[C@@H]5[C@@H](O)[C@@H](C)CN5C(=O)[C@H]([C@H](C)O)NC(=O)[C@H]([C@H](O)[C@@H](O)c5ccc(O)cc5)NC(=O)[C@@H]5C[C@@H](O)CN5C(=O)[C@H]([C@H](C)O)NC4=O)cc3)cc2)cc1 | 10 strains (fluconazole-resistant) | MIC50 | 0.06 µg/mL |
| CCOc1ccc(N2C(=O)CC(Nc3ccc(Oc4ccc(Cl)cc4)c(Cl)c3)C2=O)cc1 |  | MIC | 20 µg/mL |

Neighbouring rows are from separate reports. ECn: concentration that inhibits the pathogen or its effect by n%. A number after MIC or MFC names an inhibition level or a share of isolates.